Test results taken from article PMC4732737.

Columns and labels:
Test in all cases: ELISA
[1] = molecular target: ZM197M SOSIP.v4.1-D7324 trimer (HIV-1)
[2] = molecular target: BG505 SOSIP.664 E64K-D7324 trimer (HIV-1)
[3] = molecular target: AMC008 SOSIP.v4.2-D7324 trimer (HIV-1)
[4] = molecular target: BG505 SOSIP.664 H66R-D7324 trimer (HIV-1)
[5] = molecular target: BG505 SOSIP.664 A316W-D7324 trimer (HIV-1)
[6] = molecular target: AMC008 SOSIP.v3.2-D7324 trimer (HIV-1)
[7] = molecular target: ZM197M SOSIP.v4.2-D7324 trimer (HIV-1)
[8] = molecular target: AMC008 SOSIP.v4.1-D7324 trimer (HIV-1)

CD4-IgG2 (from UniProt P01730) (Fc fusion)
binding as percent of the corresponding SOSIP.664 trimer (from EC50) [1]: 62%
binding as percent of the corresponding SOSIP.664 trimer (from EC50) [2]: 65%
binding as percent of the corresponding SOSIP.664 trimer (from EC50) [3]: 68%
binding as percent of the corresponding SOSIP.664 trimer (from EC50) [4]: 68%
binding as percent of the corresponding SOSIP.664 trimer (from EC50) [5]: 81%
binding as percent of the corresponding SOSIP.664 trimer (from EC50) [6]: 119%
binding as percent of the corresponding SOSIP.664 trimer (from EC50) [7]: 46%
binding as percent of the corresponding SOSIP.664 trimer (from EC50) [8]: 81%
